# Earlier results as cited in article PMC11053489 (Viruses, 2024).
# Test system: 3CLpro mutations E166V and S144E
# Conditions: cited from earlier work
compound,measurement,value
CC(C)(C)[C@H](NC(=O)C(F)(F)F)C(=O)N1C[C@H]2[C@@H]([C@H]1C(=O)N[C@H](C#N)C[C@@H]1CCNC1=O)C2(C)C [Nirmatrelvir],reduction of inhibitory activity by 3CLpro mutations,> 100 fold
